PubChem BioAssay AID1259414 – Drosophila RNAi Screening Center, 2018

- Assay: 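Host factors increasing or decreasing Wolbachia levels in cultured fly cells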 (primary screen)
- System: Drosophila JW18 cells infected with Wolbachia
- Reagent: long dsRNA against Drosophila genes, 0.25 µg dsRNA per well of a 384-well plate
- Duration: 5 days
- Treatment: cells persistently infected with Wolbachia before knock-down; no added drug
- Measured: 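Automated imaging of bacterial rRNA staining divided by host cell count, reported as plate-normalised robust z-score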
- Direction: Wolbachia per cell robust z: higher = more Wolbachia per host cell than the plate typical
- Call rule: 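Active if absolute robust z reaches 1.5 in two or more of three replicates, leaving out multi- or no-target dsRNAs, genes unexpressed in JW18 and A1 wells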
The deposit covers about 24,000 reagents; this is an unselected part of those that have a named target and a result. Over the whole deposit, about 1,210 (5%) were called active. 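Inactive calls also include excluded dsRNAs with several or no targets, genes unexpressed in JW18, and well A1, regardless of score.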 Unmarked entries are inactive. No sequences are given here.

With Droj2 (DnaJ-like-2) [DRSC16450], how do the results read?
Wolbachia per cell robust z, rep 1: -0.106; Wolbachia per cell robust z, rep 2: 0.126; Wolbachia per cell robust z, rep 3: -1.08

What did the screen give for Droj2 (DnaJ-like-2) [DRSC28863]?
Wolbachia per cell robust z, rep 1: -0.0686; Wolbachia per cell robust z, rep 2: -4.74; Wolbachia per cell robust z, rep 3: -0.436

For CG6836 [DRSC10722], how do the results read?
Wolbachia per cell robust z, rep 1: 0.318; Wolbachia per cell robust z, rep 2: -0.851; Wolbachia per cell robust z, rep 3: -0.736

What is on record for CG6836 [DRSC26906]?
Wolbachia per cell robust z, rep 1: -1.01; Wolbachia per cell robust z, rep 2: -1.02; Wolbachia per cell robust z, rep 3: -1.21

What did the screen give for Ilp6 (Insulin-like peptide 6) [DRSC17906]?
Wolbachia per cell robust z, rep 1: -1.83; Wolbachia per cell robust z, rep 2: 0.255; Wolbachia per cell robust z, rep 3: 0.385

What is on record for CG6738 [DRSC16104]?
Wolbachia per cell robust z, rep 1: -2.64; Wolbachia per cell robust z, rep 2: -0.146; Wolbachia per cell robust z, rep 3: -0.0983

For CG6738 [DRSC27802], what does the deposit list?
Wolbachia per cell robust z, rep 1: -0.151; Wolbachia per cell robust z, rep 2: 0.924; Wolbachia per cell robust z, rep 3: 0.072

For Osi3 (Osiris 3) [DRSC12175], what does the deposit list?
Wolbachia per cell robust z, rep 1: -3.33; Wolbachia per cell robust z, rep 2: -3; Wolbachia per cell robust z, rep 3: 0.723

Which result is listed for CG1946 [DRSC06804]?
Wolbachia per cell robust z, rep 1: 0.213; Wolbachia per cell robust z, rep 2: 0.711; Wolbachia per cell robust z, rep 3: 0.0997

What did the screen give for CG1946 [DRSC28499]?
Wolbachia per cell robust z, rep 1: -0.805; Wolbachia per cell robust z, rep 2: -0.127; Wolbachia per cell robust z, rep 3: 0.811

Which result is listed for CG42399 [DRSC00322]?
Wolbachia per cell robust z, rep 1: -0.83; Wolbachia per cell robust z, rep 2: 0.517; Wolbachia per cell robust z, rep 3: -0.0865

With CG42399 [DRSC00661], how do the results read?
Wolbachia per cell robust z, rep 1: 0.705; Wolbachia per cell robust z, rep 2: -0.066; Wolbachia per cell robust z, rep 3: 0.477

2 neighbouring records already listed:
Ilp6 (Insulin-like peptide 6) [DRSC17906]: Wolbachia per cell robust z, rep 1 = -1.83; Wolbachia per cell robust z, rep 2 = 0.255; Wolbachia per cell robust z, rep 3 = 0.385
CG6738 [DRSC16104]: Wolbachia per cell robust z, rep 1 = -2.64; Wolbachia per cell robust z, rep 2 = -0.146; Wolbachia per cell robust z, rep 3 = -0.0983

The listing continues.
What did the screen give for CG13796 [DRSC24686]?
Wolbachia per cell robust z, rep 1: -0.388; Wolbachia per cell robust z, rep 2: -0.814; Wolbachia per cell robust z, rep 3: 0.221

For CG34242 [DRSC38727], what was measured?
Wolbachia per cell robust z, rep 1: 0.213; Wolbachia per cell robust z, rep 2: 0.0642; Wolbachia per cell robust z, rep 3: 0.769

What is on record for Trf (TBP-related factor) [DRSC03462]?
Wolbachia per cell robust z, rep 1: 0.861; Wolbachia per cell robust z, rep 2: -0.108; Wolbachia per cell robust z, rep 3: -1.4

For CrebA (Cyclic-AMP response element binding protein A) [DRSC11122], what does the deposit list?
Wolbachia per cell robust z, rep 1: -0.903; Wolbachia per cell robust z, rep 2: -2.39; Wolbachia per cell robust z, rep 3: -4.08

Which result is listed for CrebA (Cyclic-AMP response element binding protein A) [DRSC40830]?
Wolbachia per cell robust z, rep 1: -1.06; Wolbachia per cell robust z, rep 2: -0.665; Wolbachia per cell robust z, rep 3: -2.69

What is on record for HP6 (Heterochromatin protein 6) [DRSC00471]?
Wolbachia per cell robust z, rep 1: 0.612; Wolbachia per cell robust z, rep 2: 0.631; Wolbachia per cell robust z, rep 3: 0.21

For CG14370 [DRSC14832], what was measured?
Wolbachia per cell robust z, rep 1: 0.159; Wolbachia per cell robust z, rep 2: 0.376; Wolbachia per cell robust z, rep 3: -0.468

For CG11656 [DRSC14338], what does the deposit list?
Wolbachia per cell robust z, rep 1: 0.101; Wolbachia per cell robust z, rep 2: -0.825; Wolbachia per cell robust z, rep 3: -0.0318

Which result is listed for CG11656 [DRSC28955]?
Wolbachia per cell robust z, rep 1: -1.42; Wolbachia per cell robust z, rep 2: -1.19; Wolbachia per cell robust z, rep 3: -0.573

Which result is listed for Ctu1 (Cytosolic thiouridylase subunit 1) [DRSC07069]?
Wolbachia per cell robust z, rep 1: 0.497; Wolbachia per cell robust z, rep 2: 0.217; Wolbachia per cell robust z, rep 3: 0.867

For CR15280 (pseudo) [DRSC01953], how do the results read?
Wolbachia per cell robust z, rep 1: -0.0223; Wolbachia per cell robust z, rep 2: 0.156; Wolbachia per cell robust z, rep 3: -0.694

With CR15280 (pseudo) [DRSC24110], how do the results read?
Wolbachia per cell robust z, rep 1: 0.616; Wolbachia per cell robust z, rep 2: 0.709; Wolbachia per cell robust z, rep 3: 0.544
